Measured values from several laboratories, pooled; numbers as filed in NIAID ChemDB.

Common to all: whole-cell or culture tests; species: HIV-1; method: cytopathic effect; read-out: EC50

An empty or dashed field is not shown. ECn is the concentration giving n% inhibition of infection, replication or growth. Rows are shuffled and stem from different studies.

COc1cc(Cc2cnc(/N=C3\C(=O)N(CN4CCN(c5ccc(Cl)cc5)CC4)c4ccc(C)cc43)nc2N)cc(OC)c1OC ; cell line: CEM ; result: >36.1 µM
O=C1CSC(c2c(F)cccc2F)N1c1cccc([N+](=O)[O-])c1 ; strain or isolate: IIIB ; cell line: MT-4 ; result: 5.5 µM
O=C(O)CCCCCCCCCCCCn1nccn1 ; cell line: CEM ; result: >1 µg/mL
COc1cccc(N2CCN(CN3C(=O)/C(=N\c4ncc(Cc5cc(OC)c(OC)c(OC)c5)c(N)n4)c4cc(C)ccc43)CC2)c1 ; cell line: CEM ; result: >11.9 µM
O=C(O)CCCCCCCCCCCn1cnnn1 ; strain or isolate: RF ; cell line: CEM ; result: <10 µg/mL
Nc1ncnc2c1ncn2[C@H]1CC[C@@H](CO)O1 ; strain or isolate: IIIB ; cell line: ATH8 ; result: 7.5 µM
Nc1ccn([C@H]2CC[C@@H](CO)O2)c(=O)n1 ; cell line: MT-4 ; result: 0.5 µM
CCc1c(Cc2cccc3ccccc23)nc(SCC(=O)c2ccc(C)cc2)[nH]c1=O ; strain or isolate: SO561945 ; cell line: MT-4 ; mutations: RT-K103N Y181C ; result: ≥5.62 µM
[N-]=[N+]=NCCCCCCCCCCC(=O)O ; cell line: CEM ; result: >10 µg/mL
Nc1nc2c(ncn2[C@@H]2O[C@H](CO)C3OC32)c(=O)[nH]1 ; cell line: MT-4 ; result: 249 µM
CCCCCCCC(=O)NCCCCC(=O)O ; cell line: CEM ; result: >10 µg/mL
CC(C)=CCN1Cc2c(C)ccc3[nH]c(=S)n(c23)C[C@@H]1C ; strain or isolate: IIIB ; cell line: MT-4 ; result: 0.136 µM
Nc1ncnc2c1ncn2[C@@H]1O[C@H](OCP(=O)(O)O)C=C1F ; cell line: MT-2 ; mutations: RT-M184V ; result: 9.84 µM
CC(C)CCC[C@@H](C)[C@H]1CC[C@H]2[C@@H]3CC[C@H]4C[C@@H](CCC=C(c5cc(Cl)c(O)c(C(=O)O)c5)c5cc(Cl)c(O)c(C(=O)O)c5)CC[C@]4(C)[C@H]3CC[C@]12C ; strain or isolate: A012-AZT-SENS ; cell line: MT-2 ; result: 8 µM
Cc1ccc(C(=O)CSc2nc(Cc3cccc4ccccc34)c(C)c(=O)[nH]2)cc1 ; strain or isolate: SO561945 ; cell line: MT-4 ; mutations: RT-K103N Y181C ; result: ≥251 µM
O=C1CSC(c2c(Cl)cccc2Cl)N1c1ccccc1 ; strain or isolate: IIIB ; cell line: MT-4 ; result: 2.3 µM
CCOC(=O)CSc1nc(Cc2cccc3ccccc23)c(C)c(=O)[nH]1 ; strain or isolate: SO561945 ; cell line: MT-4 ; mutations: RT-K103N Y181C ; result: ≥317 µM
CCCCCCCCCCCCCCCCCCOC(=O)/C=C/c1ccc(O)c(O)c1 ; result: 0.16 µg/mL
O=C1CSC(c2c(F)cccc2F)N1c1cccc(Cl)c1 ; strain or isolate: IIIB ; cell line: MT-4 ; result: 1.44 µM
Nc1ncnc2c1ncn2[C@H]1CO[C@@H](CO)C1 ; strain or isolate: IIIB ; cell line: ATH8 ; result: 10 µM
C/C=C(\C)C(=O)c1c(O)c2c(c3c(-c4ccccc4)cc(=O)oc13)OC(C)(C)C=C2 ; strain or isolate: RF ; cell line: CEM + CEM-SS ; result: 8 µg/mL
Nc1nc(F)c2ncn([C@H]3CO[C@@H](CO)C3)c2n1 ; strain or isolate: IIIB ; cell line: ATH8 ; result: >100 µM
CCOC(=O)CCCCCCCCCC(=O)O ; cell line: CEM ; result: >1 µg/mL
CC(C)CCC[C@@H](C)[C@H]1CC[C@H]2[C@@H]3CC[C@H]4C[C@@H](CCC=C(c5cc(Cl)c(O)c(C(=O)O)c5)c5cc(Cl)c(O)c(C(=O)O)c5)CC[C@]4(C)[C@H]3CC[C@]12C ; strain or isolate: IIIB ; cell line: MT-4 ; result: 1.8 µg/mL
Cc1cn([C@H]2C[C@H](N=[N+]=[N-])[C@@H](CP(=O)(O)O)O2)c(N)nc1=O ; strain or isolate: IIIB ; cell line: MT-4 ; result: >128 µg/mL
CCN(CC)CCOc1ccc(NC(=O)COc2ccccc2C(=O)c2ccc(F)cc2)cc1 ; strain or isolate: RF ; cell line: MT-4 ; result: 1.293 µM
COc1cc([C@H](O)[C@H](CO)Oc2ccc(C(=O)CCO)cc2OC)ccc1O ; result: 1.86 µg/mL
CNc1ncnc2c1ncn2[C@H]1CO[C@@H](CO)C1 ; strain or isolate: IIIB ; cell line: ATH8 ; result: >100 µM
CC1=C/C(=C\[C@H](C)[C@]23OC(=O)C[C@]2(C)[C@H]2C[C@]4(O)C[C@@H]5C(=O)OC(C)(C)[C@]5(C)CC[C@@H]4[C@H]2O3)OC1=O ; result: 27.54 µg/mL
COc1cc(Cc2cnc(/N=C3\C(=O)N(CN4CCN(c5cccc(C(F)(F)F)c5)CC4)c4ccc(C)cc43)nc2N)cc(OC)c1OC ; cell line: MT-4 ; result: >106.2 µM
CCN(CC)CCOc1ccc(NC(=O)COc2ccccc2C(=O)c2ccc(OC)cc2)cc1 ; strain or isolate: RF ; cell line: MT-4 ; result: 0.777 µM
COc1cc(Cc2cnc(/N=C3\C(=O)N(CN4CCN(c5ccc([N+](=O)[O-])cc5)CC4)c4ccc(C)cc43)nc2N)cc(OC)c1OC ; cell line: CEM ; result: >37.4 µM
O=C(C[C@@H](O)CCc1ccccc1)c1ccc(O)cc1 ; result: 10.86 µg/mL
Nc1ncc2ncn([C@H]3CO[C@@H](CO)C3)c2n1 ; strain or isolate: IIIB ; cell line: ATH8 ; result: >100 µM
[N-]=[N+]=NCCCCCCCCCCCC(=O)O ; strain or isolate: RF ; cell line: CEM ; result: <4 µM
COc1cc(Cc2cnc(/N=C3\C(=O)N(CN4CCCCC4)c4ccc(C)cc43)nc2N)cc(OC)c1OC ; cell line: CEM ; result: >105 µM
COP(=O)(c1cc(C)cc(CCC#N)c1)c1c(C(N)=O)[nH]c2ccc(Cl)cc12 ; strain or isolate: BH10 ; cell line: MT-4 ; mutations: Y181C ; result: 0.0015 µM
Cc1cc(C)cc(N2C(=O)CSC2c2c(F)cccc2Cl)c1 ; strain or isolate: IIIB ; cell line: MT-4 ; result: 0.09 µM
COc1cc(Cc2cnc(/N=C3\C(=O)N(CN4CCN(c5ccc6c(c5F)c(=O)c(C(=O)O)cn6C5CC5)CC4)c4ccc(C)cc43)nc2N)cc(OC)c1OC ; cell line: MT-4 ; result: 11.6 µM
COCCOCCOCCOC(=O)C1(C(=O)OCCOCCOCCOC)C2c3cc4c5c6c7c8c9c%10c(cc%11c9c9c(cc(c%12c9c8c5c3-%12)C21)C%11)C=CC1(C=C6C4)CN(CCOCCOCCN)CC%1071 ; strain or isolate: IIIB ; cell line: CEM ; result: >4 µM
C=C1CN(S(=O)(=O)c2ccc(C)cc2)CCCN(Cc2ccccc2)CCCN(S(=O)(=O)c2ccc(C)cc2)C1 ; strain or isolate: RF ; cell line: SupT1 ; result: 1.8 µM
COC(=O)CCCCCCCCCCC(=O)O ; cell line: CEM ; result: >10 µg/mL

The last 5 rows once more:

compound,strain or isolate,cell line,mutations,result
Cc1cc(C)cc(N2C(=O)CSC2c2c(F)cccc2Cl)c1,IIIB,MT-4,-,0.09 µM
COc1cc(Cc2cnc(/N=C3\C(=O)N(CN4CCN(c5ccc6c(c5F)c(=O)c(C(=O)O)cn6C5CC5)CC4)c4ccc(C)cc43)nc2N)cc(OC)c1OC,-,MT-4,-,11.6 µM
COCCOCCOCCOC(=O)C1(C(=O)OCCOCCOCCOC)C2c3cc4c5c6c7c8c9c%10c(cc%11c9c9c(cc(c%12c9c8c5c3-%12)C21)C%11)C=CC1(C=C6C4)CN(CCOCCOCCN)CC%1071,IIIB,CEM,-,>4 µM
C=C1CN(S(=O)(=O)c2ccc(C)cc2)CCCN(Cc2ccccc2)CCCN(S(=O)(=O)c2ccc(C)cc2)C1,RF,SupT1,-,1.8 µM
COC(=O)CCCCCCCCCCC(=O)O,-,CEM,-,>10 µg/mL